Construct, isoform or probe ends are uncertain for at least one entry.

The target of one data set is His6-OpaR (UniProt Q79YV4). The data set can be described thus: EMSA. To be noted: EMSA: 0.4 ng probe, 20 uL of 100 mM HEPES pH 7.6, 5 mM EDTA, 50 mM (NH4)2SO4, 5 mM DTT, 1% Tween 20, 150 mM KCl, 25 C, 30 min; recombinant protein; residues 1-204; protein details: N-terminal His6 (pET28a); label: 3' digoxigenin-11-ddUTP; probe letters rebuilt from the primers and the genome. Background: A gel shift assay detects complexes by their altered migration in electrophoresis.
“TACGGCTCAGCCCCCATCAAAACCTTTTAGCTTAGAATAGAAGTCTACTGACAAATTTACCAATAAGGAAAGCATCTAAGGCATGCAATAGACCGATAGCAACTGTGAGGAAATGGGCGGGAGCTAAC (double strand) [serine protease P1]”: the binding result is “binds”.
The same measure, in the same setting: the value for “AGTACATCATGATCGTCGTGATGATCATTGGCCGTATTGGGCCTTTGACGCTCGCATATATGTTAGCGAGACCAGAGCCAACCTTGATTAACTACCCAGAAGACACGGTTCTTACTGGTTGATTTGTCAGTAACAAGCAAAATGAATGC (double strand) [m6 protease P1]” was “binds”; that for “CGTTTTTTCAAGCAGGTTAGATAAAAATAATATTTAATTATGAAAATGATAATTGATCTCATTTTTATTTAAGGGCAGAATACGCGGATTCCATTAATCCTATAAATG (double strand) [protease II P2]” was “binds”.
Take “GAATTTAAAGTGATATTTTGACTTTTTTGAGCGTCGATTGGTCATCGGCGCTCAAACATTTATAAATAACGTGGTCTTCTGCTCAAATTTTCTTTTTGATCCCCTTGTCAGCATTCCCTTATCCTTTCATTTCTGTA (double strand) [m6 protease P2]”: the binding result is reported as “binds”.

The same data set, now with this note: two shifted bands; EMSA: 0.4 ng probe, 20 uL of 100 mM HEPES pH 7.6, 5 mM EDTA, 50 mM (NH4)2SO4, 5 mM DTT, 1% Tween 20, 150 mM KCl, 25 C, 30 min; recombinant protein; residues 1-204; protein details: N-terminal His6 (pET28a); label: 3' digoxigenin-11-ddUTP; probe letters rebuilt from the primers and the genome.
For “AACCAGTGTAAACACAATCAACATCTTGCTAAATTAGCAATCTGTGCTGTTTATATGAAGTCAGACCAATATAAGCATTGGGAGAAACGGTTAGTAAGAAAAGACAAGGGTTGGCTAAGTG (double strand) [protease II P1]”, the binding result is given as “binds”.

The target of another data set is His6-OpaR (UniProt Q79YV4). The data set can be described thus: DNase I footprinting. To be noted: footprinting: 75 ng probe, DIG Gel Shift Kit binding buffer, 25 C, 30 min; recombinant protein; residues 1-204; protein details: N-terminal His6 (pET28a); label: 5' 6-FAM (sense or antisense); probe letters rebuilt from the primers and the genome.
For the sequence “TGCGCCAGCAGATCTTGTGTCAGTGCCTGATAACTTTTTTGATACTGTTCGGTCTTGCGGTTTTGCTGCGTCAAGTAGGTAAGAACTCGCTCATCTTTACGAGCGTCATCTCGCAGCCAGTTAAAATCATCAGCGGCAGTAGCGCCAAAACTAGAGGTAACTATGAGCCCTAAAAAAACATGAGTAAATTTCATATAGAGAGCGAATTCATTTATAGGATTAATGGAATCCGCGTATTCTGCCCTTAAATAAAAATGAGATCAATTATCATTTTCATAATTAAATATTATTTTTATCTAACCTGCTTGAAAAAACGTTTGCTTTAACCAGTGTAAACACAATCAACATCTTGCTAAATTAGCAATCTGTGCTGTTTATATGAAGTCAGACCAATATAAGCATTGGGAGAAACGGTTAGTAAGAAAAGACAAGGGTTGGCTAAGTGACGGGCATTAAAAAATCCGAGTGCGAACACTCGGATTTTATATGCATTAGAATCAGTTTAGAACTGAGGCGATCATGACTCTTCAGAGCTTGGTGCCGCAGGCTTTTTCTTAGGGATGAACACGTCATCACCCACCGATACGTTTTTGT (double strand) [protease II footprint probe]”, the binding result is on record as “binds”.
Regarding “TGATGATCTTGTTGTTGCTGCGTGCAAAGAAAAAACAGTGTTAGCCGTTCATTACGTGCAGAAGAAAAAATTGGCAGACAAGCTTGCTGGTGTAGCAAGTAAAGTCGCTGACAGTGTTGTGCTTAAACTTGCAGAGCGTGGTCAAAAACCAATTGTCTAATCAATGAGATAATTCGGTCATTCAACATGGCGAGAGTGAAAACTCTCGCCATTTTTATTGGAACTAATTTGTCTACAAACGACTCAATATCCAGTACTTATTTTTATGTGTCCTGATGAACCCAAGTGAGCATTGGGTGTAATGCTTTACACGACATTTTTCCTCGCTCCAGAAGGCGATTACCCGTATAATACGCGCCTCGAAAACCGAGCAAATTGCTAAAAAGAAACTATAGGTGGAGAAGAACATGTCCTCTCAAACTCCGGTTGTAACCGTAGATGGACCTAGTGGTGCAGGTAAAGGCACTTTATGTATGTTGCTGGCGAAAAAGTTGG (double strand) [periplasmic protease footprint probe]”, the binding result is recorded as “binds”.
Same read-out and setting: then “TGCAGGTTTGACGGCAGAGCTTTCAGAGCCTGGAAAGTACATCATGATCGTCGTGATGATCATTGGCCGTATTGGGCCTTTGACGCTCGCATATATGTTAGCGAGACCAGAGCCAACCTTGATTAACTACCCAGAAGACACGGTTCTTACTGGTTGATTTGTCAGTAACAAGCAAAATGAATGCAAATTAACGCTTTGAATTTAAAGTGATATTTTGACTTTTTTGAGCGTCGATTGGTCATCGGCGCTCAAACATTTATAAATAACGTGGTCTTCTGCTCAAATTTTCTTTTTGATCCCCTTGTCAGCATTCCCTTATCCTTTCATTTCTGTACCATTCATTCACTTAATTTATATCTAATGCGTAAATAACCATCAGGTAACCGCTCGTTAAATTGATGGGTATCTGAGTTCGTTTTACGCATGGTGAATTGAAAAGATGGAGCCGTACTTTGAAATTCCACACCCTTGCCTTGACCATGCTGACTGCGCTTGTTGCCGGAAACAGTATGGCAACGACACCACCATCGCCAATTTGGCATCCGATCACGCTGAGTGACGGAAGCAATAGCGAGGCGATTTTACGCGGAACTGCTGATTTCCATTGGTTTGAAGACAAACAAGGCAATGCCTTGATTCAGGAAGATGGTGTTTGGTTTTTTGCTCAGCTCCAGCGTAATTCAGACACCCCTGA (double strand) [m6 protease footprint probe]”, with “binds”; and “CCTCTCGCTCTGAAAGGTCGTTTTCTAGTTCAGACTTCAACGCCTTTAATGTACTGAGCTCTTCGCCCATGCTGCGTGAGTGCTCGGTGAGCTGCGCTTGTTTCATCGCTGCGCTATCGACCCGCGCGTAGAGATGGTTTATGAGAATGGCGGTAGCTGCCAAAGTCAGTACAAATAGCCCTAAAAAGGTTTTTAGGTTGCGTTGCATCCGTTTACTGAAATACCAATGCTTGGAGCCATTGATGGTTGATATCGAGATCGTCAGTTGGTCTTTCATCATGTCGTAATGATCGTATTCTGGTATAAGCCTCGTCACTGAGTGAGCTCGACTGTAAGGAAAACCACAGGGGACTGCCAGAGGCAAATTGGAAAGAAGTGTCAGGTCGTGAGCCGTTTTCCGATATTTGATAAAAGACTCAGTGTGGATTTAATGTTGGGTTAATTTTGGTCGGTGTTGCATGTTTGGCACTTTAGAGTGACGAAATTACCAATAGTATGAATGTGCAATTCAACATACTTCACGGTTTATCCTATAAATTGCGGATATTTTAAGAAATTAATATTCATTAAATTGATAACTGGCGACGGATCTTTATGATGACGGTTGATATGCCGATAGAGCACTCATTAGCCAGTGTTTGGCGGTGTCGGAGAACTGTAATTCGTCTCTACAGAACTCGATTTATTAAGGCTTAAAACTCGAATGCAAAACGCATTTACGAACCG (double strand) [lytM footprint probe]”, with “binds”; and “GAAGGTCGCGCGGTCAAAAGAGAGGTTGTAGGTGGCAATCTTTACTTCAGTTGGCTGAACGTTTACGTATTTCGTGTCGTCGTCATTGCAGCCAGTCAGTAAAGCGGCACCGATAAGGAGAGCGAGAGAAGTTTTAATTGTTTTCATGGGTACGTCATACCTTATAATTGATTCGGGCAAATATTAATAACATCAGTAATATTTGTAAGCGATATGAGTCACACAAACGTTTGCATAATTACATATACAATCAATTTTTGTGTGATTTGTGCAATAAATGCGACAGTTTCAACATCAAAAGGTTATATGCAAATTGTTAAAGGTATATGTCGAGAGCGTTGAATTGCCATAAACTCATCCATAAGGTCTATAAATTCCTGTGCTAGACTCAATGAACAGAATGAGATCAATAAGCCTAACGTCCTGTTAAGGGATTATTCGGCGCATAAAATCTGTCAGTTTGGCTTTGCTATTTGTGCAAAATAGGGGACTTACCGATGGATCTAGGATCAAAATATCAGCGCAAGCTCGCAGTTGGCTTGGTGTTGGTGTCACCACTTCTTGTTTCACCTTCTCTCTCTGCCGCTCAGTTGGAGCGATTAGAGCCA (double strand) [mcp02 footprint probe]”, with “binds”.
